Source: PubChem BioAssay AID1347417 (National Center for Advancing Translational Sciences (NCATS), 2020)
The list shows a part of the results, in another mix than the full data. Inconclusive results are not listed. Calls of active or inactive are those of the source. Calls follow the shape of the dose curve; as a rule, active = well fitted inhibition curve with a large enough effect; inconclusive = small, poorly fitted or top-dose-only effect; inactive = no such curve, though single readings can be large or run the other way.

assay: qHTS Primary assay for Inhibitors of Plasmodium falciparum Dd2 growth in vitro; also: nearly all actives have a fitted effect of over 65% in size; conditions: P. falciparum Dd2 growth, SYBR Green, 72 h; at 28.9 µM (top of the series)
Text: Malaria, a parasitic disease spread to humans through the bite of a Plasmodium infected Anopheles mosquito, continues to be a global health burden affecting millions of people, with an estimated 228 million cases and 405,000 deaths in 2018. Concerns about safety and limitations of current antimalarial treatments strongly emphasize the need to develop new therapeutic options. The scarce number of chemotypes and validated drug targets with efficacy against the liver stage, have hindered development of new antimalarials. To address this, a chemoprophylactic drug discovery effort was conducted through a combined phenotypic high-throughput asexual blood stage and liver stage screen, providing a robust foundation to identify liver-stage active lead chemotypes. Compounds were initially screened against Plasmodium falciparum Dd2 strain parasites using a in vitro SYBRGreen-1 based 72 hr proliferation assay to identify novel chemotypes to advance to liver stage assays. NIH/NCATS Early Translation Branch Assay Submitter (PI): Anton Simeonov Ph.D.
Malaria-vivax Assay Protocol: PROTOCOL TABLE (as described by Inglese et al., 2007) SEQUENCE No. (e.g., 1, 2, 3, etc.); […] (e.g., Cells, Incubation, Reagent, etc.); VALUE; DESCRIPTION SEQUENCE, Parameter, Description 1; Reagent; 3 uL complete malaria growth medium, 1536 TC treated Black clear bottom plate 2; Controls; 23 nL positive control artesunate (300 nM final) to column 1; Neutral control DMSO to columns 2-4 3; Compound; 23 nL of compounds in dose response concentration (29 uM to 0.5 nM final) 4; Reagent; 5 uL malaria infected red blood cells (2.5% hematocrit final, 0.3% parasitemia 5; Time; 72 hours at 37C (5% O2, 5% CO2, 90% N2; 95% Rh) 6; Reagent; 2 uL lysis buffer/SYBRGreen-1, 25 sec shake immediately following dispense 7; Time; ~16 hours at 37C (5% O2, 5% CO2, 90% N2; 95% Rh) 8; Detector; EnVision (PerkinElmer) bottom read at 485/14nm excitation and 535/25 nm emission NOTES (numbers refer to sequence above): 1; Complete Malaria Growth Media: 1X RPMI-1640 w/L-glutamine, 5.5g/L Albumax II, 367 uM Hypoxanthine, 25 mM HEPES, 0.25% Sodium Bicarbonate, 35 uM Gentamicin sulfate 2; Controls were added using the Kalypsis Pintool (Wako USA) equipped with 1536 pinhead 3; Compounds were added in a 7-point, titration with a high final concentration of 29 uM by Pintool from seven inter-plate titrations of library plates and two DMSO control plates at the beginning and end (see Yasgar et al., 2008). 4; Red blood cells infected with Plasmodium falciparum Dd2 parasites were used. 6; Lysis buffer: 20 mM Tris-HCl, 10 mM EDTA, 0.16% Saponin, 1.6% Triton-X, 10X SYBR Green. REFERENCE: Inglese J, Shamu CE, Guy RK. 2007. Reporting data from high-throughput screening of small-molecule libraries. Nat Chem Biol. doi:10.1038/nchembio0807-438 Yasgar A, Shinn P, Jadhav A, Auld D, Michael S, Zheng W, Austin CP, Inglese J, Simeonov A. 2008. Compound Management for Quantitative High-Throughput Screening. J Lab Autom 13:79-89. doi:10.1016/j.jala.2007.12.004

Compound | activity, negative = inhibition
O=C(NCC1(N2CCOCC2)CCCCC1)c1ccccc1Br | inactive: -17.6%
CCOc1ccc(C(=O)NCC2(N3CCOCC3)CCCCC2)cc1 | inactive: 17.1%
CCCOc1cccc(C(=O)NCC2(N3CCOCC3)CCCCC2)c1 | inactive: -16.2%
COc1ccccc1C(=O)NCC1(N2CCOCC2)CCCCC1 | inactive: -13.9%
O=C(NCC1(N2CCOCC2)CCCCC1)c1ccc(Cl)cc1 | inactive: -3.68%
COc1cc(C(=O)NCC2(N3CCOCC3)CCCCC2)cc(OC)c1OC | inactive: 16.3%
O=C(NCC1(N2CCOCC2)CCCCC1)c1ccccc1[N+](=O)[O-] | inactive: -15%
O=C(NCC1(N2CCOCC2)CCCCC1)c1ccccc1 | inactive: 7.57%
